Data from patent US6974685B2, “High production method of prenyl alcohol using saccharomyces cells” (Toyota Jidosha Kabushiki Kaisha 1, priority 2000, dated 2005).

Legend:
Assay type in all cases: cell-based
[1] = tested on: K 4104 Saccharomyces cerevisiae; assay: Test-tube culture in YM or YM + 5% glucose + 1% soybean oil (Example 7)
[2] = tested on: IFO 0215 Saccharomyces unisporus; assay: Test-tube culture with ergosterol and squalene synthesis inhibitor SQAD, with or without glucose and soybean oil (Example 8)
[3] = tested on: IFO 0622 Candida glabrata; assay: as above
[4] = tested on: IFO 0717 Yarrowia lopolytica; assay: as above
[5] = tested on: IFO 0948 Komagataella pastoris; assay: as above
[6] = tested on: IFO 0974 Kuraishia capsulata; assay: as above
[7] = tested on: IFO 1892 Saccharomyces kluyeri; assay: as above
[8] = tested on: IFO 3032 Baccilus amyloliquefaciens; assay: Control culture of bacterial strain in KB medium (Example 11, Table 14); details: treated with phosphatase
[9] = tested on: IFO 3762 Staphylococcus epidermidis; assay: as above; details: treated with phosphatase
[10] = YM + 5% glucose + 1% soybean oil, 3 days
[11] = YM + 5% glucose + 1% soybean oil, 6 days
[12] = YM + 4 mg/L ergosterol, SQAD 0 mg/L, 3 days
[13] = YM + 4 mg/L ergosterol, SQAD 0 mg/L, 7 days
[14] = YM + 4 mg/L ergosterol, SQAD 1 mg/L, 3 days
[15] = YM + 4 mg/L ergosterol, SQAD 1 mg/L, 7 days
[16] = YM + 4 mg/L ergosterol, SQAD 20 mg/L, 3 days
[17] = YM + 4 mg/L ergosterol, SQAD 20 mg/L, 7 days
[18] = YM + 5% glucose + 1% soybean oil + 4 mg/L ergosterol, SQAD 0 mg/L, 3 days
[19] = YM + 5% glucose + 1% soybean oil + 4 mg/L ergosterol, SQAD 0 mg/L, 7 days
[20] = YM + 5% glucose + 1% soybean oil + 4 mg/L ergosterol, SQAD 1 mg/L, 3 days
[21] = YM + 5% glucose + 1% soybean oil + 4 mg/L ergosterol, SQAD 1 mg/L, 7 days
[22] = YM + 5% glucose + 1% soybean oil + 4 mg/L ergosterol, SQAD 20 mg/L, 3 days
[23] = YM + 5% glucose + 1% soybean oil + 4 mg/L ergosterol, SQAD 20 mg/L, 7 days

**Q.** Which results are given for CC(C)=CCC/C(C)=C/CC/C(C)=C/CC/C(C)=C/CO [GGOH, geranylgeraniol]?
**A.** Cell fraction [1, 10]: 161.6 μg/L of culture solution; Supernatant fraction [1, 10]: 127.7 μg/L of culture solution; Cell fraction [1, 11]: 132.2 μg/L of culture solution; Supernatant fraction [1, 11]: 186.9 μg/L of culture solution; Cell fraction ([1]; YM medium (Difco)): 31.7 μg/L of culture solution; Supernatant fraction ([1]; YM medium (Difco)): 0.0 μg/L of culture solution; Cell fraction [2, 12]: 0.0 μg/L of culture solution; Supernatant fraction [2, 12]: 0.0 μg/L of culture solution; Cell fraction [2, 13]: 0.0 μg/L of culture solution; Supernatant fraction [2, 13]: 0.0 μg/L of culture solution; Cell fraction [2, 14]: 0.0 μg/L of culture solution; Supernatant fraction [2, 14]: 0.0 μg/L of culture solution; Cell fraction [2, 15]: 0.0 μg/L of culture solution; Supernatant fraction [2, 15]: 0.0 μg/L of culture solution; Cell fraction [2, 16]: 0.0 μg/L of culture solution; Supernatant fraction [2, 16]: 0.0 μg/L of culture solution; Cell fraction [2, 17]: 0.0 μg/L of culture solution; Supernatant fraction [2, 17]: 0.0 μg/L of culture solution; Cell fraction [2, 18]: 0.0 μg/L of culture solution; Supernatant fraction [2, 18]: 0.0 μg/L of culture solution; Cell fraction [2, 19]: 0.0 μg/L of culture solution; Supernatant fraction [2, 19]: 0.0 μg/L of culture solution; Cell fraction [2, 20]: 0.0 μg/L of culture solution; Supernatant fraction [2, 20]: 0.0 μg/L of culture solution; Cell fraction [2, 21]: 0.0 μg/L of culture solution; Supernatant fraction [2, 21]: 0.0 μg/L of culture solution; Cell fraction [2, 22]: 0.0 μg/L of culture solution; Supernatant fraction [2, 22]: 0.0 μg/L of culture solution; Cell fraction [2, 23]: 0.0 μg/L of culture solution; Supernatant fraction [2, 23]: 21.6 μg/L of culture solution; Cell fraction [3, 12]: 30.4 μg/L of culture solution; Supernatant fraction [3, 12]: 0.0 μg/L of culture solution; Cell fraction [3, 13]: 0.0 μg/L of culture solution; Supernatant fraction [3, 13]: 0.0 μg/L of culture solution; Cell fraction [3, 14]: 24.3 μg/L of culture solution; Supernatant fraction [3, 14]: 0.0 μg/L of culture solution; Cell fraction [3, 15]: 0.0 μg/L of culture solution; Supernatant fraction [3, 15]: 0.0 μg/L of culture solution; Cell fraction [3, 16]: 57.0 μg/L of culture solution; Supernatant fraction [3, 16]: 0.0 μg/L of culture solution; Cell fraction [3, 17]: 40.5 μg/L of culture solution; Supernatant fraction [3, 17]: 0.0 μg/L of culture solution; Cell fraction [3, 18]: 33.6 μg/L of culture solution; Supernatant fraction [3, 18]: 112.3 μg/L of culture solution; Cell fraction [3, 19]: 59.2 μg/L of culture solution; Supernatant fraction [3, 19]: 408.5 μg/L of culture solution; Cell fraction [3, 20]: 0.0 μg/L of culture solution; Supernatant fraction [3, 20]: 119.7 μg/L of culture solution; Cell fraction [3, 21]: 58.5 μg/L of culture solution; Supernatant fraction [3, 21]: 231.5 μg/L of culture solution; Cell fraction [3, 22]: 9.3 μg/L of culture solution; Supernatant fraction [3, 22]: 327.2 μg/L of culture solution; Cell fraction [3, 23]: 170.5 μg/L of culture solution; Supernatant fraction [3, 23]: 862.7 μg/L of culture solution; Cell fraction [4, 12]: 0.0 μg/L of culture solution; Supernatant fraction [4, 12]: 0.0 μg/L of culture solution; Cell fraction [4, 13]: 0.0 μg/L of culture solution; Supernatant fraction [4, 13]: 0.0 μg/L of culture solution; Cell fraction [4, 14]: 0.0 μg/L of culture solution; Supernatant fraction [4, 14]: 0.0 μg/L of culture solution; Cell fraction [4, 15]: 0.0 μg/L of culture solution; Supernatant fraction [4, 15]: 0.0 μg/L of culture solution; Cell fraction [4, 16]: 63.5 μg/L of culture solution; Supernatant fraction [4, 16]: 66.5 μg/L of culture solution; Cell fraction [4, 17]: 0.0 μg/L of culture solution; Supernatant fraction [4, 17]: 0.0 μg/L of culture solution; Cell fraction [4, 18]: 0.0 μg/L of culture solution; Supernatant fraction [4, 18]: 0.0 μg/L of culture solution; Cell fraction [4, 19]: 38.4 μg/L of culture solution; Supernatant fraction [4, 19]: 608.0 μg/L of culture solution; Cell fraction [4, 20]: 0.0 μg/L of culture solution; Supernatant fraction [4, 20]: 19.1 μg/L of culture solution; Cell fraction [4, 21]: 0.0 μg/L of culture solution; Supernatant fraction [4, 21]: 546.8 μg/L of culture solution; Cell fraction [4, 22]: 0.0 μg/L of culture solution; Supernatant fraction [4, 22]: 17.8 μg/L of culture solution; Cell fraction [4, 23]: 41.8 μg/L of culture solution; Supernatant fraction [4, 23]: 76.2 μg/L of culture solution; Cell fraction [5, 12]: 0.0 μg/L of culture solution; Supernatant fraction [5, 12]: 0.0 μg/L of culture solution; Cell fraction [5, 13]: 0.0 μg/L of culture solution; Supernatant fraction [5, 13]: 0.0 μg/L of culture solution; Cell fraction [5, 14]: 0.0 μg/L of culture solution; Supernatant fraction [5, 14]: 0.0 μg/L of culture solution; Cell fraction [5, 15]: 0.0 μg/L of culture solution; Supernatant fraction [5, 15]: 0.0 μg/L of culture solution; Cell fraction [5, 16]: 1.8 μg/L of culture solution; Supernatant fraction [5, 16]: 2.3 μg/L of culture solution; Cell fraction [5, 17]: 0.0 μg/L of culture solution; Supernatant fraction [5, 17]: 0.0 μg/L of culture solution; Cell fraction [5, 18]: 42.3 μg/L of culture solution; Supernatant fraction [5, 18]: 78.9 μg/L of culture solution; Cell fraction [5, 19]: 11.0 μg/L of culture solution; Supernatant fraction [5, 19]: 83.5 μg/L of culture solution; Cell fraction [5, 20]: 28.4 μg/L of culture solution; Supernatant fraction [5, 20]: 71.5 μg/L of culture solution; Cell fraction [5, 21]: 28.2 μg/L of culture solution; Supernatant fraction [5, 21]: 235.7 μg/L of culture solution; Cell fraction [5, 22]: 80.1 μg/L of culture solution; Supernatant fraction [5, 22]: 132.5 μg/L of culture solution; Cell fraction [5, 23]: 84.5 μg/L of culture solution; Supernatant fraction [5, 23]: 360.4 μg/L of culture solution; Cell fraction [6, 12]: 0.0 μg/L of culture solution; Supernatant fraction [6, 12]: 0.0 μg/L of culture solution; Cell fraction [6, 13]: 0.0 μg/L of culture solution; Supernatant fraction [6, 13]: 0.0 μg/L of culture solution; Cell fraction [6, 14]: 0.0 μg/L of culture solution; Supernatant fraction [6, 14]: 0.0 μg/L of culture solution; Cell fraction [6, 15]: 0.0 μg/L of culture solution; Supernatant fraction [6, 15]: 0.0 μg/L of culture solution; Cell fraction [6, 16]: 0.0 μg/L of culture solution; Supernatant fraction [6, 16]: 0.0 μg/L of culture solution; Cell fraction [6, 17]: 0.0 μg/L of culture solution; Supernatant fraction [6, 17]: 0.0 μg/L of culture solution; Cell fraction [6, 18]: 0.0 μg/L of culture solution; Supernatant fraction [6, 18]: 11.1 μg/L of culture solution; Cell fraction [6, 19]: 8.5 μg/L of culture solution; Supernatant fraction [6, 19]: 236.3 μg/L of culture solution; Cell fraction [6, 20]: 7.5 μg/L of culture solution; Supernatant fraction [6, 20]: 46.1 μg/L of culture solution; Cell fraction [6, 21]: 21.2 μg/L of culture solution; Supernatant fraction [6, 21]: 275.7 μg/L of culture solution; Cell fraction [6, 22]: 34.8 μg/L of culture solution; Supernatant fraction [6, 22]: 262.0 μg/L of culture solution; Cell fraction [6, 23]: 59.7 μg/L of culture solution; Supernatant fraction [6, 23]: 680.4 μg/L of culture solution; Cell fraction [7, 12]: 8.9 μg/L of culture solution; Supernatant fraction [7, 12]: 0.0 μg/L of culture solution; Cell fraction [7, 13]: 0.0 μg/L of culture solution; Supernatant fraction [7, 13]: 0.0 μg/L of culture solution; Cell fraction [7, 14]: 16.7 μg/L of culture solution; Supernatant fraction [7, 14]: 0.0 μg/L of culture solution; Cell fraction [7, 15]: 0.0 μg/L of culture solution; Supernatant fraction [7, 15]: 0.0 μg/L of culture solution; Cell fraction [7, 16]: 38.5 μg/L of culture solution; Supernatant fraction [7, 16]: 0.0. μg/L of culture solution; Cell fraction [7, 17]: 0.0 μg/L of culture solution; Supernatant fraction [7, 17]: 0.0 μg/L of culture solution; Cell fraction [7, 18]: 0.0 μg/L of culture solution; Supernatant fraction [7, 18]: 46.1 μg/L of culture solution; Cell fraction [7, 19]: 0.0 μg/L of culture solution; Supernatant fraction [7, 19]: 71.4 μg/L of culture solution; Cell fraction [7, 20]: 0.0 μg/L of culture solution; Supernatant fraction [7, 20]: 23.0 μg/L of culture solution; Cell fraction [7, 21]: 0.0 μg/L of culture solution; Supernatant fraction [7, 21]: 101.7 μg/L of culture solution; Cell fraction [7, 22]: 0.0 μg/L of culture solution; Supernatant fraction [7, 22]: 30.7 μg/L of culture solution; Cell fraction [7, 23]: 27.8 μg/L of culture solution; Supernatant fraction [7, 23]: 126.4 μg/L of culture solution; Cell fraction [8]: 0.0 μg/L of culture solution; Supernatant fraction [8]: 0.0 μg/L of culture solution; Cell fraction [9]: 0.0 μg/L of culture solution; Supernatant fraction [9]: 0.0 μg/L of culture solution
